From patent publication US20060258596A1, “Antimicrobial agents” (published 2006)

Experiments:
Enterobacteriacae = experiment: Growth inhibition of Enterobacteriacae
Burkholderia spp. = experiment: Growth inhibition of Burkholderia spp.
[1] = test system: Stenotrophomonas maltophilia; experiment: Growth inhibition of Stenotrophomonas maltophilia

LCSYIDV
concentration inhibiting P. aeruginosa (P. aeruginosa): sub-μm
inhibition of growth of P. aeruginosa (P. aeruginosa): inhibits the growth
concentration displaying antibacterial activity towards P. aeruginosa (P. aeruginosa; HPLC-purified peptide, FIG. 3): 1 nM
inhibition of growth of Enterobacteriacae (Enterobacteriacae): inhibits the growth
inhibition of growth of Burkholderia spp. (Burkholderia spp.): inhibits the growth
inhibition of growth of Stenotrophomonas maltophilia [1]: inhibits the growth
